In data set [1] the test system is M. hyorhinis. Nature of the data set: Vmax measured using MCA labeled substrates with gentle HECAMEG lysis. It counts as biochemical, Mycoplasma hyorhinis. The settings on record: Vmax infected medium / Vmax uninfected medium. Here is the method:
A presently preferred substrate is leu-MCA that had significant activity above the uninfected media control under the gentle conditions used to lyse the Mycoplasma (0.05% HECAMEG, 1 mM MgCl2, 100 mM NaCl, 40 mM Tris buffer, pH 8.5). The MCA-Leu substrate produces a signal level of 500 mOD in 30 minutes with M. hyorhinis, while M. hyorhinis has weak activity for arg-MCA.

For data set [2], the system named is Mycoplasma cells. Kind of data set: Detergent lysis buffer procedure for trxB assay. The settings on record: 0.25% Triton X-100, 0.4% BriJ 35, digitonin. It counts as cell-based. As for the experimental part: A detergent lysis buffer procedure that would hydrolyze the simple Mycoplasma cell membranes but not lyse the tissue culture cells was needed. Methyl-6-O—(N-heptylcarbamoyl)-α-D-glucopyranoside (HECAMEG) is a preferred detergent. […] As expected, 0.1 mM NADPH enhanced the activity of trxB (FIG. 12). As a substrate for trxB, Bodipy® FL L-cystine provided a signal that was 7500 times that of the buffer control, however this signal was an artifact of the digitonin.

“methionine-(7-methoxycoumarin-4-yl)acetyl [met-MCA]”: the Signal/Noise in data set [1] amounted to 15.90.

`C[C@@H]1CC[C@@]2(OC1)O[C@H]1[C@@H](O)[C@H]3[C@@H]4CC[C@H]5C[C@@H](O[C@@H]6O[C@H](CO)[C@H](O[C@@H]7O[C@H](CO)[C@@H](O)[C@H](O[C@@H]8OC[C@@H](O)[C@H](O)[C@H]8O)[C@H]7O[C@@H]7O[C@H](CO)[C@H](O)[C@H](O[C@@H]8O[C@H](CO)[C@@H](O)[C@H](O)[C@H]8O)[C@H]7O)[C@H](O)[C@H]6O)[C@H](O)C[C@]5(C)[C@H]4CC[C@]3(C)[C@H]1[C@@H]2C` [digitonin]: in data set [2], the “effect of detergent on trxB assay” value was “either significant increase in the background or loss in the true level of trxB activity”.

As for “arginine-(7-methoxycoumarin-4-yl)acetyl [arg-MCA]”, in data set [1], the Signal/Noise amounted to 2.10.

In data set [1], “leucine-(7-methoxycoumarin-4-yl)acetyl [leu-MCA]” came in with a Signal/Noise of 23.83.

As to Triton X-100, in data set [2], the “effect of detergent on trxB assay” value was “either significant increase in the background or loss in the true level of trxB activity”.

The values are drawn from patent US20100221758A1, “Sensors for Measuring Contaminants” (ECI Biotech Inc., priority 2007, published 2010).
